Reference: patent US20170321196A1, “ANALYTICAL AND DIAGNOSTIC METHODS UTILIZING SHIGELLA FLEXNERI APYRASE” (priority 2014, published 2017)

Experiment: ATP degradation by apyrase in buffer, firefly luciferase bioluminescent assay
Assay type: biochemical
Protocol: Cuvettes contained 100 μL sample in a total volume of 1 mL containing ATP Reagent SL (BioThema AB, Sweden) in 0.07 mol/L Tris- EDTA Buffer and the reaction was started by injection of 10 μL 10 μmol/L ATP Standard. The initial apyrase activity was determined as described by Lundin and coworkers (Analytical Biochemistry 75, 611-620 (1976) and Methods in Enzymology vol 305, 346-370 (2000)) with some modifications. Bioluminescence was measured at every 10 s during 1 min, in the fully automatic 1251 Luminometer (LKB-Wallac, Turku, Finland). To this, 10 μl of 10 μmol/L ATP was added to determine the background ground luminescence. The temperature control was set to 25° C. and bioluminescence was measured from several cuvettes in parallel during 30 or 60 minutes and compared to residual ATP after various incubation times using rSFA and STA. This was repeated with rSFA and STA and a graph was plotted by keeping the ATP-degradation rate as internal control to determine the ATP-degradation efficiency of both of the enzyme sources.
Light emission from the firefly-luciferase reaction was measured at 25° C. in a 1251 Luminometer (LKB-Wallac; Finland) using the ATP Kit SL (BioThema AB, Sweden) according to the manufacture's instruction (in buffer experiment) or adding concentrated luciferase (in serum/urine experiments). Initially luciferase reaction follows first-order kinetics and the ATP Reagent SL in this kit produces light intensity proportional to the ATP concentration. A plot of the natural logarithm of the light intensity versus time yields a straight line with the slope representing the rate constant of the reaction. Starting concentration of STA, A6535, A6237 (Sigma-Aldrich) was adjusted similar to rSFA. BL-reaction was started automatically upon addition of 0.2 μmol/L ATP, and the light intensity was measured every 10 second for 10 minutes (in buffer experiment) or 30 minutes (in serum and urine experiments), in the reaction volume of 0.5 mL.

B1: rSFA: Recombinant Shigella flexneri apyrase with 6-His tag, amino-acid sequence SEQ ID NO: 4, expressed in E. coli BL21-A1 (protein, listed as Shigella flexneri)
chain: DIHMKTKNFLLFCIATNMIFIPSANALKAEGFLTQQTSPDSLSILPPPPAENSVVFQADKAHYEFGRSLRDANRVRLASEDAYYENFGLAFSDAYGMDISRENTPILYQLLTQVLQDSHDYAVRNAKEYYKRVRPFVIYKDATCTPDKDEKMAITGSYPSGHASFGWAVALILAEINPQRKAEILRRGYEFGESRVICGAHWQSDVEAGRLMGASVVAVLHNTPEFTKSLSEAKKEFEELNTPTNELTPHHHHHHRTMF
modifications: 6-His tag
concentration of ATP in rSFA treated samples lower than STA-treated samples (at 91 minutes): about 45 fold
improvement in completeness of ATP elimination versus commercial STA variants (in buffer, FIG. 7, log scale): at least 10 fold
concentration of ATP in rSFA treated samples lower compared to STA-treated samples (time point 17 minutes): about 20 times
